{"source": "patent US20190194718", "molecular_target": "BPHIN 1 (wild-type HIV-1 integrase) (Human immunodeficiency virus 1) (UniProt P04585)", "test": "binding assay", "conditions": "tested paired with adaptor 7; pGL2 fragments 150-500 bp; 5 mM MnCl2, 37 C; purified recombinant protein; protein details: BioProducts MD, LLC", "note": "For at least one entry, the source does not settle the construct or the ends of the probe.", "data": [{"sequence": "CAAGCAGAAGACGGCATACGAGATCGTGATGTGACTGGAGTTCAGACGTGTGCTCTTCCGATCTAGCAGT / ACTGCT [IN adaptor 8]", "values": [{"measurement": "binding result", "result": "binds"}]}]}
